Pooled drug test results. Numbers come from NIAID ChemDB, via PubChem.

Common to all: host cell toxicity; read-out: CC50

CCn is the concentration with n% toxicity to the cells. An empty or dashed field is not shown. a–b is a range or a potency band. Conditions beyond the fields shown may differ between rows.

| compound | cells | method | value |
|---|---|---|---|
| CCOC1N=C2C3=C(N=CN2N1c1ccccc1)SC(c1ccncc1)C1=C3/C(=C/c2ccncc2)CCC1 | CNE-2 | MTT | 13.2 µM |
| Cc1nc(C(C)C)c2[nH]c(=S)[nH]c(=O)n12 | WI-38 |  | 200 µg/mL |
| C/C(=N\NC(=O)c1ccc([N+](=O)[O-])cc1)c1cccc(/C(C)=N/NC(=O)c2ccc([N+](=O)[O-])cc2)n1 | HL-60 | MTT | 2.6 µM |
| CCOC(=O)COc1ccc(CN(C(=O)c2ccc(-c3ccc4c(c3)OCO4)cc2)C(C)C)cc1 | RAJI |  | >20 µM |
| OC[C@H]1O[C@@H](n2c(Br)nc3cc(Cl)c(Cl)cc32)[C@H](O)[C@@H]1O | CEM-CD+4 |  | 35–72 µM |
| CC(=O)Nc1nc2c(CC(O)CO)nc(C)n2c(=O)[nH]1 | WI-38 |  | >400 µg/mL |
| CN(C)c1cccc2c(S(=O)(=O)Nc3ccc(NC(=O)C(C)(C)CO)cc3)cccc12 | Human embryonic lung fibroblasts |  | 93 µM |
| CC1=CSC2=NC(/C=C/c3ccc4c(c3)OCO4)=C(C(=O)/C=C/c3ccc4c(c3)OCO4)C(c3ccccc3)N12 | C1008 (Vero cells) | resazurin | 497 µg/mL |
| CSc1nsc(-c2ccc(OCCCOc3ccccc3)cc2)c1C#N | HEP-2/L-929/VERO |  | >20 µM |
| N#Cc1c(N)c2c3c([nH]c2[nH]c1=O)SC(c1ccncc1)C1=C3/C(=C/c2ccncc2)CCC1 | CNE-2 | MTT | 15.3 µM |
| O=C(NCc1ccc(Cl)cc1)c1cn2c(CCN3CCOCC3)cc3cc(CN4CCOCC4)cc(c1=O)c32 | CBL | MTS | >17.9 µM |
| CCOc1cccc(-c2ccc(C(=O)N(Cc3cccc(OCCCCCC(=O)OC(=O)O)c3)C(C)C)cc2)c1 | BJ |  | >20 µM |
| CC(C)(CF)C(=O)Nc1ccc(NS(=O)(=O)c2cccc3ccccc23)cc1 | Human embryonic lung fibroblasts |  | 62.5 µM |
| COc1ccc(C2C(C(=O)/C=C/c3ccc(F)cc3)=C(/C=C/c3ccc(F)cc3)N=C3SC=C(C)N32)cc1 | C1008 (Vero cells) | resazurin | 261 µg/mL |
| O=C1Sc2nc3c(c(=S)n2C/C1=C/c1ccccc1)C1=C(CCC/C1=C\c1ccncc1)C(c1ccncc1)S3 | KB | MTT | 23.4 µM |
| CCOC(=O)c1ccc(OCCCOc2ccc(-c3snc(SC)c3C#N)cc2)cc1 | HEP-2/L-929/VERO |  | 2 µM |
| C=CCc1ncn2c(=O)[nH]c(NC(C)=O)nc12 | VERO |  | 200 µg/mL |
| Cc1cc(CCCCCCCOc2ccc3ccccc3c2)on1 | WIS HELA | crystal violet | 50 µg/mL |
| COc1ccc2c(O[C@@H]3C[C@H]4C(=O)N[C@]5(C(=O)NS(=O)(=O)C6CC6)C[C@H]5/C=C\CCCCN(C)C(=O)[C@@H]4C3)cc(-c3nc(C(C)C)cs3)nc2c1C | Huh7-SG1a H77 |  | >42 µM |
| CC(C)(CO)C(=O)Nc1ccc(NS(=O)(=O)c2cccc3ccccc23)cc1 | Mouse fibroblast cell lines |  | 94 µM |
| CC(C)Nc1nc2cc(Cl)c(Cl)cc2n1[C@H]1O[C@@H](CO)[C@H](O)[C@@H]1O | CFU-GM |  | 90 µM |
| CSc1nsc(-c2ccc(OCCCCOc3ccc(C#N)cc3)cc2)c1C#N | HELA-OHIO |  | 2 µM |
| Cc1cc(CCCCCCCOc2ccc(N3CCNC3)cc2)on1 | WIS HELA | crystal violet | 10 µg/mL |
| O=C(NCc1ccc(Cl)cc1)c1cn2c3c(cc(CN4CCOCC4)cc3c1=O)OC(c1cccnc1)C2 | DAUDI | MTS | >94 µM |
| Cc1cc(CCCCCCCOC23CC4CC(CC(C4)C2)C3)on1 | WIS HELA | crystal violet | 50 µg/mL |
| CSc1nsc(-c2ccc(OCc3ccccc3)cc2)c1C#N | HELA-OHIO |  | >50 µM |
| CCOC(=O)CCCCCOc1cccc(CN(C(=O)c2ccc(-c3ccc4c(c3)OCO4)cc2)C(C)C)c1 | HEK 293 |  | >20 µM |
| CCOC(=O)c1ccc(OCCOc2ccc(-c3snc(SC)c3C#N)cc2)cc1 | HELA-OHIO |  | 2 µM |
| COc1ccc(/C=C/C(=O)C2=C(/C=C/c3ccc(OC)cc3)N=C3SC=C(C)N3C2c2cc(OC)c(OC)c(OC)c2)cc1 | C1008 (Vero cells) | resazurin | 348 µg/mL |
| CNc1cccc2c(S(=O)(=O)Nc3ccc(NC(=O)C(C)(C)C(=O)O)cc3)cccc12 | Human embryonic lung fibroblasts |  | 250 µM |
| C=CCCN(Cc1cc(OC)cc(OC)c1)C(=O)CC(C)=O | BJ |  | <7.5 µM |
| CCOC(=O)c1[nH]c2c(c1NC(N)=S)C1=C(CCC/C1=C\c1ccncc1)C(c1ccncc1)S2 | MGC-803 | MTT | >50 µM |
| Cc1cnsc1CCCCCCOc1ccc2ccccc2c1 | WIS HELA | crystal violet | 50 µg/mL |
| O=c1[nH]c(=S)[nH]c2c3c([nH]c12)SC(c1ccncc1)C1=C3/C(=C/c2ccncc2)CCC1 | CNE-2 | MTT | 14.1 µM |
| CC1=CSC2=NC(/C=C/c3cccc(Cl)c3)=C(C(=O)/C=C/c3cccc(Cl)c3)C(c3ccc(Cl)cc3)N12 | C1008 (Vero cells) | resazurin | 317.3 µg/mL |
| CC(C)N(Cc1cccc(OCCCCCC(=O)OC(=O)O)c1)C(=O)c1ccc(-c2cccc(S(C)(=O)=O)c2)cc1 | HEK 293 |  | >20 µM |
| Nc1c(C(=O)c2ccccc2)[nH]c2c1C1=C(CCC/C1=C\c1ccncc1)C(c1ccncc1)S2 | MCF-7 | MTT | >50 µM |
| CCOC(=O)CCCCCOc1cccc(CN(C(=O)c2ccc(-c3ccco3)cc2)C(C)C)c1 | RAJI |  | >20 µM |
| Cc1cc(C)n(CCCCCCON2C(=O)COc3c2ccc2ccccc32)n1 | WIS HELA | crystal violet | 100 µg/mL |
| CC1=CSC2=NC(/C=C/c3ccccc3)=C(C(=O)/C=C/c3ccccc3)C(c3ccccc3)N12 | C1008 (Vero cells) | resazurin | 195 µg/mL |
| Cc1cc(OCCCCCCc2ccns2)c2ccccc2n1 | WIS HELA | crystal violet | 5 µg/mL |
| CSc1nsc(-c2ccc(OCCCCOc3ccccc3)cc2)c1C#N | HEP-2/L-929/VERO |  | >20 µM |
| N#CC1=C(N)SC(c2ccncc2)C2=C1/C(=C/c1ccncc1)CCC2 | CNE-2 | MTT | >50 µM |
| Nc1nc2ncn(/C=C3/C(F)C3(CO)CO)c2c(=O)[nH]1 | HFF |  | 197 µM |
| Cc1cc(CCCCCCCOc2ccc(-n3cncn3)cc2)on1 | WIS HELA | crystal violet | 750 µg/mL |
| Nc1c2c(nc(=O)n1-c1ccccc1)SC(c1ccncc1)C1=C2/C(=C/c2ccncc2)CCC1 | MGC-803 | MTT | 14.9 µM |